Results from patent US20240109955A1.

B1: B8 (antibody, V domains shown)
VH: EVQLVESGGALIQPGGSLRLSCAASGIIVSANYMSWVRQAPGKGLEWVSVIYSGGSTFYADSVKGRFTISRDNSKNTLYLEMNSLRAEDTAVYYCARDAPILGVSDWGQGTLVTVSS
VL: EIVMTQSPAILSVSPGERATLSCRASQSVAINLAWYQQKPGQAPRLLIYAASSRATGIPGRFSGSGSETNFTLTISSLQSGDFAVYYCQQYITWPPSYTFGQGTKLEIK
B2: E8 (antibody, V domains shown)
VH: QVTLRESGPALVKPTQTLTLTCTFSGFSLSTRGVCVSWIRQPPGKALEWLAFIDWDDDKYYNTSLKTRLTISKDTSKNQVVLTMTNVHPVDTATYYCARISSHHGSSWCTTFDYWGQGALVTVSA
VL: DTVMTQSPLSLPVTPGEPASISCRSSQSLLNSNGYNYLDWYVQKPGQSPQLLIYLGSNRASGVPDRFSGSGSGTDFTLKISRVEAEDVGVYYCMQPLQTPLFTFGPGTKVEIK

Target: SARS-CoV-2 spike protein, Omicron sublineage BA.2.75.2 (SARS-CoV-2), P0DTC2
Experiment: cell-based or functional assay

Binder	IC50 (pseudovirus neutralization) [nM]	IC80 (pseudovirus neutralization) [nM]
B1	12.2	27.4
B2	1.72	5.9
